The values that follow come from patent publication US9181310B2 (priority 2003, dated 2015).

The subject of this assay is Xanthomonas citri. Conditions: in vivo.

B1: BombBC: Bacteriophage Outer Membrane Breaching protein of Xanthomonas phage P15 (Xp15) ORF BC, 17.9 kD, SEQ ID NO. 17 (protein, listed as Xanthomonas campestris)
chain: MSDQTDTTQTTPAEKAPPKEIIRGRMPIAVVALARFGSQSTTTTKAAADALGTTVGKIDDIRKNRNFAYVTADFKPTEAQKADGIEWLKRHPVGADALIEELQNLPVATAEESAAFEQVRASARGQNAKTAEGEVAQAGGGNRRKKKEKPAEAGEVQNPPAADGDSLLS
For B1, the numbers of pustules result is given as “many fewer”; the “pathogenic symptoms caused by X. citri” value is given as “greatly reduced”; the “size of the pustules” value was “pustules remained tiny and were much less well developed”.
